Results on 2 substances are retold here after paper PMC8420505, “Identification of lectin receptors for conserved SARS‐CoV‐2 glycosylation sites” (2021).

Usually koff stands for the rate constant with which the complex falls apart. Higher therefore signals a short-lived complex.

Like-named read-outs stand apart in the source and are kept apart here.

Test [1] concerns the target stabilized full‐length trimeric pre‐fusion SARS‐CoV‐2 Spike protein (Spike‐H6) (SARS‐CoV‐2) (UniProt P0DTC2). The test can be described thus: SPR. A general note: In SPR one partner is held on a chip, and binding of the other changes the refractive index at the surface.
Test [2] has the same target. The test can be described thus: high-speed AFM.
For test [3] the target is unchanged. The test can be described thus: high-speed AFM. The source holds these as a separate data set.
The target is the same in test [4]. The test can be described thus: single-molecule force spectroscopy (AFM).

In test [1], “human CD209‐hIgG1 Fc‐fusion protein (from UniProt Q9NNX6) (Fc fusion)” yielded a Kd,1 (first binding step, bivalent analyte model) of 2.39 µM; a ka,1 (first binding step, bivalent analyte model) of 13200 M⁻¹ s⁻¹; a kd,1 (first binding step, bivalent analyte model) of 0.0316 s⁻¹. Also, in test [2], the stoichiometry N (lectin molecules per Spike trimer) was 3.6. Besides, in test [3], the stoichiometry N (lectin molecules per Spike trimer) stood at 3.8. Also, the koff in test [4] worked out at 0.008 s⁻¹.
In the case of “human CLEC4G‐hIgG1 Fc‐fusion protein (from UniProt Q6UXB4) (Fc fusion)”, in test [1], the Kd,1 (first binding step, bivalent analyte model) was found to be 0.259 µM; the ka,1 (first binding step, bivalent analyte model) was 77700 M⁻¹ s⁻¹; the kd,1 (first binding step, bivalent analyte model) was found to be 0.0201 s⁻¹. Further, in test [3], the stoichiometry N (lectin molecules per Spike trimer) was 3.5.
